Compound potency records, mixed from different reports. Data source: NIAID ChemDB in PubChem.

Shared fields: whole-cell or culture tests; species: Mycobacterium kansasii; measure: MIC

Lines come from different laboratories, so protocols vary. An empty or dashed field is not shown.

SMILES | conditions | method | strain or isolate | result
O=C(Nc1cccc(C(F)(F)F)c1)c1cc(Cl)ccc1OS(=O)(=O)c1ccccc1 | 14 d |  | 235/80 | 8 µM
C[C@@H](NC(=O)OCc1ccccc1)c1cnc(-c2ccc([N+](=O)[O-])cc2)[nH]1 | 7 d |  | My 235/80 | >125 µM
NNC(=O)c1ccncc1 | 21 d |  | 235/80 | >250 µM
N/C(=N\N=C\c1ccccc1)SCc1cccc(Cl)c1 | 21 d | broth dilution | 6509/96 | 62.5 µM
O=C(Nc1cccc(F)c1)c1ccc(Cl)cc1OS(=O)(=O)c1ccccc1 | 7 d |  | 235/80 | 16 µM
CC[C@@H](C)[C@H](NC(=O)OCc1ccccc1)c1cnc(-c2ccccc2)[nH]1 | 14 d |  | My 6509/96 | 32 µM
COc1ccc2oc(=S)n(-c3ccc(C(F)(F)F)cc3)c(=S)c2c1 | 21 d |  | 6509/96 | 32 µM
N/C(=N\N=C\c1ccccc1O)SCc1cccc(Cl)c1 | 14 d | broth dilution | ATCC 12478 | 62.5 µM
O=C(Oc1cc(Cl)ccc1C(=O)Nc1cccc(Br)c1)c1ccccc1 | 14 d | broth dilution | 6509/96 | 4 µM
Fc1cccc(-n2c(=S)oc3ccc(Br)cc3c2=S)c1 | 21 d |  | 6509/96 | 8 µM
O=C(Nc1ccc(F)cc1)c1cc(Cl)ccc1OS(=O)(=O)c1ccccc1 | 7 d |  | 6509/96 | 16 µM
Cc1ccc2oc(=O)n(-c3ccc(C(F)(F)F)cc3)c(=S)c2c1 | 14 d |  | 6509/96 | 16 µM
CC(C)C[C@H](NC(=O)OCc1ccccc1)c1cnc(-c2ccccc2)[nH]1 | 7 d |  | My 6509/96 | >125 µM
O=C(Oc1ccc(Cl)cc1)c1cnccn1 | 7 d |  | 6509/96 | 250 µM
O=C(Nc1ccc(C(F)(F)F)cc1)c1ccc(Cl)cc1OS(=O)(=O)c1ccccc1 | 14 d |  | 6509/96 | 4 µM
O=C(OCc1ccccc1)N1CCC[C@H]1c1cnc(-c2ccccc2)[nH]1 | 21 d |  | My 6509/96 | 62.5 µM
N/C(=N\N=C\c1cc(Cl)ccc1O)SCc1ccc(F)cc1 | 14 d | broth dilution | 6509/96 | 32 µM
O=C(Oc1cc(Cl)ccc1C(=O)Nc1ccc(C(F)(F)F)cc1)c1ccccc1 | 7 d | broth dilution | 235/80 | 1 µM
COc1ccc2oc(=O)n(-c3ccc(C)cc3)c(=S)c2c1 | 14 d |  | 6509/96 | 8 µM
CC(C)[C@H](NC(=O)OCc1ccccc1)c1cnc(-c2ccccc2)[nH]1 | 14 d |  | My 235/80 | 62.5 µM
Cc1ccc(-n2c(=O)oc3ccc(Br)cc3c2=S)cc1 | 14 d |  | My 235/80 | 2 µM
O=C(Oc1cc(Cl)ccc1C(=O)Nc1ccc(Br)cc1)c1ccccc1 | 14 d | broth dilution | 6509/96 | 4 µM
O=C(Oc1ccc(Cl)cc1C(=O)Nc1ccc(C(F)(F)F)cc1)c1cnccn1 | 14 d |  | 6509/96 | 2 µM
O=C(Oc1cc(Cl)ccc1C(=O)Nc1cccc(Cl)c1)c1ccccc1 | 21 d | broth dilution | 235/80 | 4 µM
O=c1oc2ccc(F)cc2c(=S)n1-c1cccc(Cl)c1 | 14 d |  | 6509/96 | 0.5 µM
O=C(Oc1ccc(Cl)cc1C(=O)Nc1ccc(Br)cc1)c1cnccn1 | 7 d |  | 235/80 | 2 µM
O=C(Oc1cc(Cl)ccc1C(=O)Nc1ccc(Cl)cc1)c1ccccc1 | 21 d | broth dilution | 6509/96 | 4 µM
O=C(Nc1ccc(Cl)cc1)c1ccc(Cl)cc1OS(=O)(=O)c1ccccc1 | 7 d |  | 235/80 | 8 µM
O=C(OCc1ccccc1)N1CCC[C@H]1c1cnc(-c2ccc([N+](=O)[O-])cc2)[nH]1 | 7 d |  | My 35/80 | 62.5 µM
O=C(Oc1ccc(Cl)cc1C(=O)Nc1ccc(Cl)cc1)c1cnccn1 | 21 d |  | 6509/96 | 4 µM
N/C(=N\N=C\c1ccccc1O)SCc1ccc(Cl)cc1 | 21 d | broth dilution | ATCC 12478 | 62.5 µM
S=c1oc2ccc(Br)cc2c(=S)n1-c1ccc(Br)cc1 | 14 d |  | 6509/96 | 4 µM
O=C(Oc1ccc(Cl)cc1C(=O)Nc1ccc(Br)cc1)c1ccccc1 | 14 d | broth dilution | 6509/96 | 4 µM